Target: MERS-CoV Spike Protein S1 (aa 1-725, His Tag) (Sino 40069-V08H) (MERS-CoV, UniProt K9N5Q8 18-725)
Experiment: Luminex, supernatant

Binder	MFI
mAb10985 (antibody, V domains shown) VH: EVQLVESGGGLVQPGRSLRLSCAASGFTFDDYAMHWVRQAPGKGLEWVSGISWNRGSIGYADSVKGRFTISRDNAKNSLYLQMSSLRAEDTALYYCAKDGERWDSVVVPSARNGMDVWGQGTTVTVSS VL: QSVLTQPPSVSGAPGQRVTISCTGSSSNIGAGYDVHWYQQLPGTAPKLLIYGNSNRPSGVPDRFSGSKSGTSASLAITGLQAEDEADYYCQSYDSSLSGSYVFGTGTKVTVLG	14 MFI
mAb10913 (antibody, V domains shown) VH: EVQLVESGGGLVQPGGSLRLSCAASGFTFRNYEMNWVRQAPGKGLEWVSYITSSGSTMYYADSVKGRFTISRDNAKNSLYLQMNSLRAEDTAVYYCARDGFYYYYAMDVWGQGTTVTVSS VL: QSVLTQPPSVSAAPGQKVTISCSGSSSNIGNNYVSWYQQLPGTAPKLLIYDNNKRPSGIPDRFSGSKSGTSATLGITGLQTGDEADYYCGTWDSSLSVGRVFGTGTKVTVLG	14 MFI
mAb10937 (antibody, V domains shown) VH: QITLKESGPTLVKPTQTLTLTCTFSGFSLSTNVVGVGWIRQPPGKALEWLALIYWNDDKRYSPSLKSRLTITKDTSKNQVVLTMTNMDPVDTATYYCAHGPTGDYFDYWGQGTLVTVSS VL: not shown	14 MFI
mAb10920 (antibody, V domains shown) VH: QVQLVESGGGVVQPGRSLRLSCAASGFTFSYYGMHWVRQAPGKGLEWVAVIWYDGSNKFYADSVKGRFTISRDNSKNTLYLQMNSLRAEDTAVYYCAAARPGYYYGMDVWGQGTTVTVSS VL: DIQMTQSPSSLSASVGDRVTITCRASQGISNYLAWFQQKPGKAPNSLIYAASSLQRGVPSKFSGSGSGTDFTLTISSLQPEDFATYYCQQYNSYPRTFGQGTKVEIKR	13 MFI
mAb10930 (antibody, V domains shown) VH: EVQLVESGGGLVQPGRSLRLSCAASGFTFDDYAMYWVRQAPGKGLEWVSGISWNSGSIGYADSVKGRFTISRDNAKNSLYLQMNSLRAADTALYYCAKDKDWNSRGYYYYGMDVWGQGTTVTVSS VL: not shown	14 MFI
mAb10984 (antibody, V domains shown) VH: EVQLVESGGGLVQPGGSLRLSCAASGLTVNRNYMSWVRQAPGKGLEWVSLIYSGGSTYYADSVKGRFTISRDNSKNTLYLQMNSLRLEDTAVYYCARGELGIPYGMDVWGQGTTVTVSS VL: QSVLTQPPSVSAAPGQKVTISCSGSSSNIGNNYVSWYQQLPGTAPKLLIYDNNKRPSGIPDRFSGSKSGTSATLGITGLQTGDEADYYCGTWDSSLSAGVFGGGTKLTVLG	13 MFI

Source: patent US20240043504A1 (published 2024)
